Pooled drug test results. Numbers come from NIAID ChemDB, via PubChem.

Shared fields: whole-cell or culture tests; agent: HIV-1

Conditions beyond the fields shown may differ between rows.

| smiles | changes | read by | cells | strain or isolate | measure | result |
|---|---|---|---|---|---|---|
| Cc1ccc(S)c(C(=O)N2CCN(C(=O)C(=O)c3c[nH]c4cccc(F)c34)CC2)c1 | - | luciferase | HeLa + HELA CD4+/CCR5 | - | EC50 | <10 µM |
| Cc1cc(/C=C/C#N)cc(C)c1Oc1nc(NC2CCN(Cc3ccccn3)CC2)nc2ccsc12 | NNRTI-resistant (RT L100I) | MTT | MT-4 | IIIB | EC50 | 0.0184 µM |
| CN(CC1c2nc(C(=O)NCc3ccc(F)cc3)c(O)c(=O)n2CCN1C)C(=O)c1cccc[n+]1[O-] | - | p24 | MT-4 | - | EC50 | 1–10 µM |
| Cc1cc(N(C)C(=O)[C@H](Cc2ccccc2)NC(=O)NS(=O)(=O)N[C@@H](Cc2ccccc2)C(=O)N(C)c2ccc(C#N)c(C)c2)ccc1C#N | - | luciferase | MT-2 | NL4-3 | EC50 | 2.74 µM |
| Nc1ccc(C(=O)N2CCN(C(=O)C(=O)c3c[nH]c4cccc(Cl)c34)CC2)cc1 | - | luciferase | HeLa + HELA CD4+/CCR5 | - | EC50 | <10 µM |
| Cc1cc(/C=C/C#N)cc(C)c1Oc1nc(NC2CCN(Cc3cccnc3)CC2)nc2ccsc12 | NNRTI-resistant (RT Y188L) | MTT | MT-4 | IIIB | EC50 | 0.0107 µM |
| CC1(C)CC=C(c2cn(-c3nccc(C(=O)NC4CCC(N5CC6CCC(C5)O6)CC4)n3)c3ccc(F)c([C@H](OC(C)(C)C)C(=O)O)c23)CC1 | G140S/Q148H | luminescence | MT-4 | NL4-3 | EC50 | 0.0051 µM |
| CCc1ccc(N(C)C(=O)[C@H](Cc2cc(F)cc(F)c2)NC(=O)NS(=O)(=O)N[C@@H](Cc2cc(F)cc(F)c2)C(=O)N(C)c2ccc(CC)nc2)cn1 | - | luciferase | MT-2 | NL4-3 | EC50 | 0.03 µM |
| Cc1cc(/C=C/C#N)cc(C)c1Oc1nc(NC2CCN(Cc3ccc(Br)cc3)CC2)nc2ccsc12 | NNRTI-resistant (RT L100I) | MTT | MT-4 | IIIB | EC50 | 0.0582 µM |
| CCCc1cc(=O)oc2c3c(c4c(c12)OC(C)(C)CC4)O[C@@H](C)[C@H](C)[C@@H]3O | - | cytopathic effect / XTT | AA5 | IIIB | EC50 | 0.6 µM |
| COC(=O)c1cccc2c(C(=O)C(=O)N3CCN(C(=O)c4ccc(Br)o4)C[C@H]3C)c[nH]c12 | - | luciferase | HeLa + HELA CD4+/CCR5 | - | EC50 | <10 µM |
| NC(=O)c1cc(-c2cccnc2[C@H](Cc2cc(F)cc(F)c2)NC(=O)NS(=O)(=O)N[C@@H](Cc2cc(F)cc(F)c2)c2ncccc2-c2ccc(F)c(C(N)=O)c2)ccc1F | - | luciferase | MT-2 | NL4-3 | EC50 | 0.15 µM |
| Cc1ncc(-c2ccc(OCCCCF)cn2)c(N2CCC(C)(C)CC2)c1[C@H](OC(C)(C)C)C(=O)O | - | luminescence | MT-2 | NL4-3 | EC50 | 0.0017 µM |
| CCN1c2ncc(CCOc3ccc(-c4cc(C(=O)O)c[n+]([O-])c4)cc3C)cc2C(=O)N(C)c2cccnc21 | - | p24 | C8166 | IIIB | EC50 | >0.05 µM |
| O=C(C(=O)N1CCN(C(=O)c2ccccc2)CC1)c1c[nH]c2cc(Cl)ccc12 | - | RT activity | MT-2 | BRU | EC50 | <10 µM |
| COc1ccc(N(C)C(=O)[C@H](Cc2cc(F)cc(F)c2)NC(=O)CN2c3ccccc3N(CC(=O)N[C@@H](Cc3cc(F)cc(F)c3)C(=O)N(C)c3ccc(OC)c(F)c3)S2(=O)=O)cc1F | - | luciferase | MT-2 | NL4-3 | EC50 | 0.04 µM |
| CCCCO[C@H](C(=O)O)c1c(C)ncc(-c2ccc(N(C)CCOc3ccc(F)cc3Cl)cn2)c1N1CCC(C)(C)CC1 | - | luminescence | MT-2 | NL4-3 | EC50 | 0.0159 µM |
| CN(C(=O)[C@H](Cc1cc(F)cc(F)c1)NC(=O)NS(=O)(=O)N[C@@H](Cc1cc(F)cc(F)c1)C(=O)N(C)c1ccc2sc(=O)n(C)c2c1)c1ccc2sc(=O)n(C)c2c1 | - | luciferase | MT-2 | NL4-3 | EC50 | 0.27 µM |
| Cc1ncc(-c2ccc(OCC3CCCCC3)nc2)c(N2CCC(C)(C)CC2)c1[C@H](OC(C)(C)C)C(=O)O | - | luminescence | MT-2 | NL4-3 | EC50 | 0.0045 µM |
| COc1ccc(N(C)C(=O)[C@H](Cc2ccccc2)NC(=O)Cn2c(=O)c3ccccc3c(=O)n2CC(=O)N[C@@H](Cc2ccccc2)C(=O)N(C)c2ccc(OC)cc2)cc1 | - | luciferase | MT-2 | NL4-3 | EC50 | 0.29 µM |
| Cc1cc(/C=C/C#N)cc(C)c1Oc1nc(NC2CCN(Cc3ccc(F)cc3)CC2)nc2ccsc12 | NNRTI-resistant (RT L100I) | MTT | MT-4 | IIIB | EC50 | 0.0143 µM |
| COc1cccc2c(C(=O)C(=O)N3CCN(C(=O)c4ccccc4)C[C@H]3C)c[nH]c12 | - | luciferase | HeLa + HELA CD4+/CCR5 | - | EC50 | <10 µM |
| CN(C)CC1c2nc(C(=O)NCc3ccc(F)cc3)c(O)c(=O)n2CCN1C | - | p24 | MT-4 | - | EC95 | 1–10 µM |
| Nc1nc(NC2CC2)c2ncn([C@H]3C=C[C@@H](CO)C3)c2n1 | - | p24 | MT-4 | NL4-3 WT | EC90 | 2.3 µM |
| COc1ccc(N(C)C(=O)[C@H](Cc2ccccc2)NC(=O)CC(=O)N[C@@H](Cc2ccccc2)C(=O)N(C)c2ccc(OC)cc2)cc1 | - | luciferase | MT-2 | NL4-3 | EC50 | 1.94 µM |
| COC(=O)c1ccc(CN2CCC(Nc3nc(Oc4c(C)cc(C#N)cc4C)c4ccsc4n3)CC2)cc1 | NNRTI-resistant (RT Y181C) | MTT | MT-4 | IIIB | EC50 | 0.0907 µM |
| O=C(C(=O)N1CCN(C(=O)c2ccc(F)cc2F)CC1)c1c[nH]c2ccccc12 | - | RT activity | MT-2 | BRU | EC50 | >10 µM |
| CCN1c2ncc(CCOc3ccc(-c4ccc[n+]([O-])c4)cc3C)cc2C(=O)N(C)c2cccnc21 | RT-K103N Y181C | p24 | C8166 | - | EC50 | <0.01 µM |
| Cc1ncc(-c2ccc(OCCC(C)F)cn2)c(N2CCC(C)(C)CC2)c1[C@H](OC(C)(C)C)C(=O)O | - | luminescence | MT-2 | NL4-3 | EC50 | 0.0019 µM |
| CCN1c2ncc(CCOc3ccc(C(=O)NN)cc3C)cc2C(=O)N(C)c2cccnc21 | - | p24 | C8166 | IIIB | EC50 | <0.01 µM |
| CN(C)C(=O)C(=O)N1CCc2nc(C(=O)NCc3ccc(F)cc3)c(O)c(=O)n2CC1 | - | p24 | MT-4 | - | EC50 | <50 µM |
| Cc1nc2ccccc2c(-c2cc(F)c3c(c2C)CCCO3)c1[C@H](OC(C)(C)C)C(=O)O | V201I | luminescence | MT-4 | NL4-3 | EC50 | 0.032 µM |
| Cc1ncc(-c2ccc(NCCOc3ccc(Cl)cc3Cl)nc2)c(N2CCC(C)(C)CC2)c1[C@H](OC(C)(C)C)C(=O)O | - | luminescence | MT-2 | NL4-3 | EC50 | 0.0063 µM |
| CN1CCn2c(nc(C(=O)NCc3cccc(Cl)c3)c(O)c2=O)C(N(C)C(=O)C(=O)N(C)C)C1 | - | p24 | MT-4 | - | EC95 | <1 µM |
| COP(=O)(c1cc(C)cc(CCC#N)c1)c1c(C(N)=O)[nH]c2ccc(Cl)cc12 | - | - | PBMC | NL4-3 | EC50 | 0.0015 µM |
| CCN1c2ncc(CCOc3ccc(Nc4nc(C(=O)O)cs4)cc3C)cc2C(=O)N(C)c2cccnc21 | RT-K103N Y181C | p24 | C8166 | - | EC50 | 0.01–0.05 µM |
| CN(C(=O)[C@H](Cc1ccccc1)NC(=O)NS(=O)(=O)N[C@@H](Cc1ccccc1)C(=O)N(C)c1ccc2c(c1)OCO2)c1ccc2c(c1)OCO2 | - | luciferase | MT-2 | NL4-3 | EC50 | 0.17 µM |
| COC(C(C)C)C(C)Oc1ncc(-c2cnc(C)c([C@H](OC(C)(C)C)C(=O)O)c2N2CCC(C)(C)CC2)cc1F | - | luminescence | MT-2 | NL4-3 | EC50 | 0.0036 µM |
| Nc1nc(=O)n([C@H]2C=C[C@@H](CO)O2)cc1F | RT-T69SSS L210W T215Y | p24 | PBMC | XM-T69SSS | EC90 | 6.6 µM |
| O=C1Cn2c(nc(C(=O)NCc3ccc(F)cc3)c(O)c2=O)CN1 | - | p24 | MT-4 | - | EC95 | <50 µM |
| Cc1cc(/C=C/C#N)cc(C)c1Oc1nc(NC2CCN(Cc3ccccc3Cl)CC2)nc2ccsc12 | NNRTI-resistant (RT Y181C) | MTT | MT-4 | IIIB | EC50 | 0.133 µM |
| CN(C)C(=O)C(=O)N1CCN2CCn3c(nc(C(=O)NCc4ccc(F)cc4)c(O)c3=O)C1C2 | - | p24 | MT-4 | - | EC95 | <50 µM |
| CCCCCC1CN(C(=O)C(=O)c2c[nH]c3c(C(=O)OC)cccc23)CCN1C(=O)c1ccccc1 | - | luciferase | HeLa + HELA CD4+/CCR5 | - | EC50 | <10 µM |

A second listing of 3 rows from above:

smiles,changes,read by,cells,strain or isolate,measure,result
CN(C)CC1c2nc(C(=O)NCc3ccc(F)cc3)c(O)c(=O)n2CCN1C,-,p24,MT-4,-,EC95,1–10 µM
CN(C)C(=O)C(=O)N1CCN2CCn3c(nc(C(=O)NCc4ccc(F)cc4)c(O)c3=O)C1C2,-,p24,MT-4,-,EC95,<50 µM
COC(=O)c1ccc(CN2CCC(Nc3nc(Oc4c(C)cc(C#N)cc4C)c4ccsc4n3)CC2)cc1,NNRTI-resistant (RT Y181C),MTT,MT-4,IIIB,EC50,0.0907 µM

a–b is a range or a potency band. ECn is the concentration giving n% inhibition of infection, replication or growth. Blank or dashed fields: not listed here.